Anti-infective test results gathered from many reports (values: NIAID ChemDB through PubChem).

Shared fields: tests in culture; organism: Aspergillus fumigatus; read-out: MIC100

An empty or dashed field is not shown. Neighbouring rows are from separate reports. a–b is a range or a potency band. A number after MIC or MFC names an inhibition level or a share of isolates.

{"SMILES": "Cc1cc(O)c2c(c1)C(=O)c1cc(O)c(O)c(O)c1C2=O", "method": "visual reading", "value": "35–71 µM"}
{"SMILES": "Fc1ccc(-c2n[nH]c(COc3nc(C(F)(F)F)nc4ccccc34)n2)cc1", "strain": "MTCC 25", "value": "25 µg/mL"}
{"SMILES": "O=C1CSC2(CCc3ccccc32)N1n1c(-c2ccc([N+](=O)[O-])cc2)n[nH]c1=S", "value": "25 µg/mL"}
{"SMILES": "CCC(C)n1ncn(-c2ccc(N3CCN(c4ccc(OC[C@H]5CO[C@](Cn6cncn6)(c6ccc(Cl)cc6Cl)O5)cc4)CC3)cc2)c1=O", "strain": "MRCM 32552", "method": "broth dilution / visual reading", "value": ">8 µg/mL"}
{"SMILES": "CC1CC(c2ccncc2)Nc2ccc(Br)cc21", "strain": "ATCC 26934", "value": ">250 µg/mL"}
{"SMILES": "Cc1ccc(-c2n[nH]c(COc3nc(C)nc4ccccc34)n2)cc1", "strain": "MTCC 343", "value": "50 µg/mL"}
{"SMILES": "CC(C)=CCc1ccc(C2C(=O)OC(Cc3ccc(O)cc3)C2C)cc1O", "method": "broth dilution", "value": "34.13 µg/mL"}
{"SMILES": "COc1ccc(-c2n[nH]c(COc3ncnc4ccccc34)n2)cc1", "strain": "MTCC 343", "value": "25 µg/mL"}
{"SMILES": "Cc1ccc(OCc2n[nH]c(=S)n2N2C(=O)CSC23CCc2ccccc23)cc1", "value": "6.25 µg/mL"}
{"SMILES": "CC(C)=CCC/C(C)=C/CC/C(C)=C/CC/C=C(/C)CC/C(C)=C\\CO", "strain": "ATCC 16404", "method": "broth dilution", "value": "125 µg/mL"}
{"SMILES": "CC1/C=C/C=C/C=C/C=C/C(O[C@@H]2O[C@H](C)[C@@H](O)[C@H](N)[C@@H]2O)CC2OC(O)(CC(O)CC(O)C(O)/C=C/C(=O)OC1C)CC(O)C2C(=O)O", "strain": "CGMCC 3.3552", "method": "broth dilution", "value": "25 µg/mL"}
{"SMILES": "c1csc(-c2n[nH]c(COc3ncnc4ccccc34)n2)c1", "strain": "MTCC 343", "value": "12.5 µg/mL"}
{"SMILES": "O=C1CSC2(CCc3ccccc32)N1n1c(-c2ccc(Cl)cc2Cl)n[nH]c1=S", "value": "6.25 µg/mL"}
{"SMILES": "C[C@H]1[C@H](O)[C@@H](C)/C=C/C=C/C=C/C=C/C=C/C=C/C=C/[C@H](O[C@@H]2O[C@H](C)[C@@H](O)[C@H](N)[C@@H]2O)C[C@@H]2O[C@](O)(C[C@@H](O)C[C@@H](O)CC[C@H](O)[C@@H](O)C[C@@H](O)CC(=O)O[C@H]1C)C[C@H](O)[C@H]2C(=O)O", "setting": "48 h", "strain": "ATCC 204305", "method": "broth dilution", "value": "0.5 µg/mL"}
{"SMILES": "Fc1ccc(-c2n[nH]c(COc3ncnc4ccccc34)n2)cc1", "strain": "MTCC 343", "value": "6.25 µg/mL"}
{"SMILES": "O=C1CSC2(CCc3ccccc32)N1n1c(COc2ccc(Cl)cc2)n[nH]c1=S", "value": "25 µg/mL"}

Repeating the first 2 entries:

SMILES	setting	strain	method	value
Cc1cc(O)c2c(c1)C(=O)c1cc(O)c(O)c(O)c1C2=O			visual reading	35–71 µM
Fc1ccc(-c2n[nH]c(COc3nc(C(F)(F)F)nc4ccccc34)n2)cc1		MTCC 25		25 µg/mL